Compound potency records, mixed from different reports. Data source: NIAID ChemDB in PubChem.

Common to all: whole-cell or culture tests; species: Cryptococcus neoformans; endpoint: MIC80

A number after MIC or MFC names an inhibition level or a share of isolates. An empty or dashed field is not shown. Neighbouring rows are from separate reports.

SMILES,strain,method,result
O=C1CSC(=O)N1CC(O)(Cn1nccn1)c1ccc(F)cc1F,CNCYP51,,11.29 µg/mL
OC(CN1CCN(c2ccc(OCc3ccncc3)cc2)CC1)(Cn1cncn1)c1ccc(F)cc1F,101045,,0.125 µg/mL
C=CCc1ccc(Cn2cc(CN3CCN([C@H](C)[C@](O)(Cn4cncn4)c4ccc(F)cc4F)CC3)c3ccccc32)cc1,ATCC 36556,resazurin,>128 µg/mL
CCCCCCCCC(=O)OC1CCN(CC(O)(Cn2cncn2)c2ccc(F)cc2F)CC1,BLS108,broth dilution,0.034 µM
CCC(C)c1ccc(Cn2cc(CN3CCN([C@H](C)[C@](O)(Cn4cncn4)c4ccc(F)cc4F)CC3)c3ccccc32)cc1,ATCC 36556,resazurin,>128 µg/mL
CN(C)CCNC(=O)c1ccc(-c2ccc(-c3ccc(C(=O)NCCN(C)C)cc3)o2)cc1,H99,,>100 µg/mL
C[C@@H](N1CCN(Cc2c[nH]c3ccccc23)CC1)[C@](O)(Cn1cncn1)c1ccc(F)cc1F,ATCC 36556,resazurin,>128 µg/mL
C[C@@H](n1ncc2ccc([N+](=O)[O-])cc21)[C@](O)(Cn1cncn1)c1ccc(F)cc1F,ATCC 24065,,0.25 µg/mL
O=C1S/C(=C\c2ccc3ccccc3n2)C(=O)N1CC(O)(Cn1nccn1)c1ccc(F)cc1F,,,8.1 µg/mL
C[C@@H](n1cc2cc(Cl)ccc2n1)[C@](O)(Cn1cncn1)c1ccc(F)cc1F,ATCC 24065,,0.015 µg/mL
CC(C)C(=O)OC1CCN(CC(O)(Cn2cncn2)c2ccc(F)cc2F)CC1,BLS108,broth dilution,0.612 µM
O=C1S/C(=C\c2ccncc2)C(=O)N1CC(O)(Cn1nccn1)c1ccc(F)cc1F,,,>100 µg/mL
C[C@@H](N1CCN(Cc2cn(Cc3ccc(Cl)cc3Cl)c3ccc(C#N)cc23)CC1)[C@](O)(Cn1cncn1)c1ccc(F)cc1F,ATCC 36556,resazurin,>128 µg/mL
O=C1S/C(=C\c2ccccn2)C(=O)N1CC(O)(Cn1nccn1)c1ccc(F)cc1F,CNCYP51,,9.02 µg/mL
CC(C)N=C(N)c1ccc2nc(-c3ccc(CCc4ccc(-c5nc6ccc(C(N)=NC(C)C)cc6[nH]5)cc4)cc3)[nH]c2c1,114.95,,0.19 µg/mL
CC(C)(C)C(=O)OC1CCN(CC(O)(Cn2cncn2)c2ccc(F)cc2F)CC1,BLS108,broth dilution,0.592 µM
Cn1nc(Cc2ccc(Cl)cc2)c2ccccc2c1=O,Clinical isolate (IM 031631),broth dilution,31.3 µg/mL
N=C(N)c1ccc(OCCCC(O)COc2ccc(C(=N)N)cc2)cc1,119.95,,0.39 µg/mL
CCC(=O)OC1CCN(CC(O)(Cn2cncn2)c2ccc(F)cc2F)CC1,BLS108,broth dilution,0.634 µM
CC(O)Cc1ccc(Cn2cc(CN3CCN([C@H](C)[C@](O)(Cn4cncn4)c4ccc(F)cc4F)CC3)c3cccc(F)c32)cc1,ATCC 36556,resazurin,>128 µg/mL
NN(Cc1ccccc1)CC(O)(Cn1cncn1)c1ccc(F)cc1F,ATCC 24065,,0.063 µg/mL
C[C@@H](N1CCN(Cc2cn(-c3ccc(F)cc3)c3ccccc23)CC1)[C@](O)(Cn1cncn1)c1ccc(F)cc1F,ATCC 36556,resazurin,>128 µg/mL
C[C@@H](n1ncc2cc(N(C)C)ccc21)[C@](O)(Cn1cncn1)c1ccc(F)cc1F,ATCC 24065,,0.25 µg/mL
O=C(CC1=Nc2ccccc2C1)OC1CCN(CC(O)(Cn2cncn2)c2ccc(F)cc2F)CC1,BLS108,broth dilution,2.019 µM
CN(C)CCN(C)C(=O)c1ccc(-c2ccc(-c3ccc(C(=O)N(C)CCN(C)C)cc3)o2)cc1,H99,,>110 µg/mL
O=C(/C=C/c1cccc(Br)c1)OC1CCN(CC(O)(Cn2cncn2)c2ccc(F)cc2F)CC1,BLS108,broth dilution,0.458 µM
O=C(NCCCN1CCOCC1)c1ccc(-c2ccc(-c3ccc(C(=O)NCCCN4CCOCC4)cc3)o2)cc1,H99,,>100 µg/mL
C[C@@H](N1CCN(Cc2cn(Cc3ccc(F)cc3F)c3c(C#N)cccc23)CC1)[C@](O)(Cn1cncn1)c1ccc(F)cc1F,ATCC 36556,resazurin,>128 µg/mL
CCCCCCCC(=O)OC1CCN(CC(O)(Cn2cncn2)c2ccc(F)cc2F)CC1,BLS108,broth dilution,0.139 µM

2 of the rows above, restated:

| SMILES | strain | method | result |
|---|---|---|---|
| CCCCCCCCC(=O)OC1CCN(CC(O)(Cn2cncn2)c2ccc(F)cc2F)CC1 | BLS108 | broth dilution | 0.034 µM |
| C[C@@H](n1ncc2ccc([N+](=O)[O-])cc21)[C@](O)(Cn1cncn1)c1ccc(F)cc1F | ATCC 24065 |  | 0.25 µg/mL |